Anti-infective test results gathered from many reports (values: NIAID ChemDB through PubChem).

Common to all: tests in culture; organism: Herpes simplex virus 1

a–b is a range or a potency band. ECn is the concentration giving n% inhibition of infection, replication or growth. Neighbouring rows are from separate reports. An empty or dashed field is not shown.

smiles | changes | read by | strain | measure | cells | result
Cn1cc(C(=O)NCc2ccc(Cl)cc2)c(=O)c2cc(CN3CCOCC3)ccc21 | - | plaque count | 4E | EC50 | HFF | 2.8 µM
Nc1ncnc2c1ncn2C/C=C\CO | - | cytopathic effect | - | EC50 | - | >100 µg/mL
OC[C@H]1O[C@@H](n2c(SCc3ccccc3)nc3cc(Cl)c(Cl)cc32)C[C@@H]1O | - | ELISA | - | EC50 | HFF | >100 µM
C[C@H](N)C(=O)OCCOCn1cnc2c(=O)[nH]c(N)nc21 | - | - | SC16 | EC50 | VERO | 2.8 µM
C=CCc1nc(C)n2c(=O)[nH]cnc12 | - | cytopathic effect | KOS | EC50 | PRK | >100 µg/mL
NCCC(=O)OCCOCn1cnc2c(=O)[nH]c(N)nc21 | - | - | SC16 | EC50 | VERO | 10.5 µM
NC(=O)CCCN(CCCC(N)=O)S(=O)(=O)c1cccc(Nc2nc(Nc3cccc(S(=O)(=O)N(CCCC(N)=O)CCCC(N)=O)c3)nc(Nc3ccc(-c4ccc(Nc5nc(Nc6cccc(S(=O)(=O)N(CCCC(N)=O)CCCC(N)=O)c6)nc(Nc6cccc(S(=O)(=O)N(CCCC(N)=O)CCCC(N)=O)c6)n5)cc4S(=O)(=O)O)c(S(=O)(=O)O)c3)n2)c1 | - | ELISA | Patton | EC50 | - | 8.9 µM
Cc1cn([C@H]2C=C[C@@H](OC(C(=O)O)P(=O)(O)O)C2)c(=O)[nH]c1=O | TK-deficient acyclovir-resistant | cytopathic effect | KOS | EC50 | HEL | >250 µM
Nc1nc2c(ncn2COCCO)c(=O)[nH]1 | - | plaque count | VR-3 | EC50 | HEL | 0.39 µM
Cc1cc(O)c2c(=O)c3cccc(Cl)c3[nH]c2c1 | - | plaque count | KOS | EC50 | VERO | >100 µM
O=c1[nH]c(=O)n([C@H]2C[C@H](O)[C@@H](CO)O2)cc1I | - | - | WT-34 | MIC | - | 3.2 µg/mL
Nc1nc2c(ncn2COC(CO)CO)c(=O)[nH]1 | - | cytopathic effect | KOS | EC50 | HEL | 0.03 µM
CC(C)[C@H](NC(=O)CN)C(=O)OCC(COC(=O)[C@@H](NC(=O)CN)C(C)C)OCn1cnc2c(=O)[nH]c(N)nc21 | - | plaque count | - | EC50 | HFF | 0.38 µM
O=c1[nH]c(=O)n([C@H]2C[C@H](O)[C@@H](CO)O2)cc1C(F)(F)F | - | cytopathic effect | - | EC50 | Primary rabbit kidney cells | 0.66 µM
O=C(/C=C/c1ccc(O)c(O)c1)O[C@@H]1CC(O)(C(=O)O)C[C@@H](OC(=O)/C=C/c2ccc(O)c(O)c2)C1O | - | cytopathic effect | MacIntyre | EC50 | VERO | >100 µM
N#Cc1cn(C2O[C@H](CO)[C@@H](O)[C@H]2O)c(=O)[nH]c1=O | - | cytopathic effect | - | EC50 | Human skin fibroblasts | >700 µM
CC[C@]1(Cl)C(=O)NC(=O)N([C@H]2C[C@H](O)[C@@H](CO)O2)[C@@H]1OC | - | cytopathic effect | E-377 | EC50 | HFF | >50 µM
CCc1cn([C@H]2C[C@H](O)[C@@H](CO)O2)c(=O)[nH]c1=O | - | cytopathic effect | McIntyre | EC50 | PRK | 0.2 µg/mL
Cc1cc([C@@H](O)[C@@H](O)CO)co1 | - | plaque count | MFPT-resistant-2 | EC50 | VERO | 147 µM
O=c1[nH]c(=O)n([C@H]2C[C@H](O)[C@@H](CO)O2)cc1F | - | cytopathic effect | F | EC50 | PRK | 10 µg/mL
Cc1cn(C(CF)CCCO)c(=O)[nH]c1=O | - | cytopathic effect | B2006 (TK-) | EC50 | ESM | >400 µg/mL
O=C(NCc1ccc(Cl)cc1)c1cn2c3c(cc(CN4CCOCC4)cc3c1=O)OC(c1cccnc1)C2 | - | plaque count | E-115 | EC50 | HFF | >10.5 µM
CC(C)[C@H](N)C(=O)N[C@H](C(=O)OCC(COC(=O)[C@@H](NC(=O)[C@@H](N)C(C)C)C(C)C)OCn1cnc2c(=O)[nH]c(N)nc21)C(C)C | - | plaque count | - | EC50 | HFF | 0.56 µM
Nc1nc2c(ncn2[C@@H]2C[C@H](CO)[C@H]2CO)c(=O)[nH]1 | - | hybridisation | KOS | EC50 | WI-38 | 0.008–0.08 µM
OC[C@H]1O[C@@H](n2c(Cl)nc3cc(Cl)c(Cl)cc32)C[C@@H]1O | - | ELISA | - | EC50 | HFF | 41 µM
Nc1nc2c(ncn2C[C@]2(CO)C[C@H]2CO)c(=O)[nH]1 | - | cytopathic effect | - | EC50 | VERO | 0.01–0.1 µM
Nc1ncnc2c1ncn2CCCC(O)CF | - | cytopathic effect | B2006 (TK-) | EC50 | ESM | >400 µg/mL
COc1cc(OC)c(NC(=S)Nc2ccc(NC(=O)c3ccccc3F)cc2Cl)cc1Cl | - | ELISA | E-377 | EC50 | HFF | 0.7 µg/mL
CN1[C@@H]2CC[C@H]1CC(OC(=O)C(CO)c1ccccc1)C2 | - | - | - | EC50 | HeLa | >400 µg/mL
Nc1nc2c(ncn2[C@@H]2C=C[C@H](CO)CC2)c(=O)[nH]1 | - | cytopathic effect | - | EC50 | VERO | 0.01–0.1 µM
CC(C)NS(=O)(=O)c1ccccc1C(=O)N/N=C/c1ccc(-c2cccs2)cc1 | TK-deficient acyclovir-resistant | cytopathic effect | KOS | EC50 | HEL | >100 µM
CC[C@H](O)C1=C[C@@H](n2cnc3c(N)ncnc32)[C@H](O)[C@@H]1O | - | cytopathic effect | B2006 (TK-) | EC50 | E6SM | >200 µg/mL
CN(C)Cc1cn([C@H]2C[C@H](O)[C@@H](CO)O2)c(=O)[nH]c1=O | - | cytopathic effect | KOS | EC50 | PRK | >200 µg/mL
O=c1[nH]c(=O)n([C@H]2C[C@H](O)[C@@H](CO)O2)cc1CCCl | - | cytopathic effect | F | EC50 | PRK | 0.15 µg/mL
O=c1[nH]c(=O)n([C@H]2C[C@H](O)[C@@H](CO)O2)cc1/C=C/Br | - | cytopathic effect | KOS | EC50 | E6SM | 0.001 µM
Nc1nc2c(ncn2COC(CO)CO)c(=O)[nH]1 | - | plaque count | KOS | EC50 | WI-38 | 0.04 µM
COC(=O)[C@H](C)NP(=O)(OC[C@H]1O[C@@H](n2cc(/C=C/Br)c(=O)[nH]c2=O)C[C@@H]1O)Oc1ccc(Cl)cc1 | - | cytopathic effect | KOS TK- acyclovir-resistant | EC50 | E6SM | 16 µM
O=c1[nH]c(=O)n([C@H]2C[C@H](O)[C@@H](CO)O2)cc1I | - | cytopathic effect | - | EC50 | Human skin fibroblasts | 0.57 µM
Nc1nc2c(ncn2C=C2CC2CO)c(=O)[nH]1 | - | cytopathic effect | - | EC50 | VERO | 10–100 µM
Nc1nc(NCC2CC2CO)c(N=O)c(=O)[nH]1 | - | cytopathic effect | - | EC50 | - | >100 µg/mL
CC(C)Nc1nc2cc(Cl)c(Cl)cc2n1[C@H]1C[C@H](O)[C@@H](CO)O1 | - | ELISA | - | EC50 | HFF | >100 µM
CC(=O)OC[C@H]1C[C@@H](n2cc(Br)c(=O)[nH]c2=O)[C@H](OC(C)=O)C1 | - | cytopathic effect | 377 | EC50 | PRK | 100 µg/mL
OC[C@H]1O[C@@H](n2cnc3cc(Cl)c(Cl)cc32)C[C@@H]1O | - | ELISA | - | EC50 | HFF | >100 µM
CC(C)Oc1ccccc1NC(=O)Nc1ccc2cnccc2n1 | - | plaque count | - | EC50 | - | >100 µg/mL
C#C[C@@H](O)C1=C[C@@H](n2cnc3c(N)ncnc32)[C@H](O)[C@@H]1O | - | cytopathic effect | KOS | EC50 | E6SM | >400 µg/mL
CC(C)[C@@H](N)C(=O)OCCOCn1cnc2c(=O)[nH]c(N)nc21 | - | - | SC16 | EC50 | VERO | 2.3 µM
Cc1ccc(S(=O)(=O)NNC(=O)c2ccccc2S(=O)(=O)NC(C)C)cc1 | - | cytopathic effect | KOS | EC50 | HEL | >100 µM
Nc1nc2c(ncn2CCCC(O)CF)c(=O)[nH]1 | - | cytopathic effect | KOS | EC50 | ESM | >400 µg/mL
Nc1nc2c(ncn2COCCO)c(=O)[nH]1 | TK-deficient acyclovir-resistant | cytopathic effect | KOS | EC50 | HEL | 50 µM
CCc1cn([C@H]2C[C@H](O)[C@@H](CO)O2)c(=O)[nH]c1=O | - | - | VR-3 | MIC | - | 3.2 µg/mL
[N-]=[N+]=NCc1cn([C@H]2C[C@H](O)[C@@H](CO)O2)c(=O)[nH]c1=O | - | cytopathic effect | VDX348 | EC50 | PRK | 7 µg/mL
O=c1[nH]c(=O)n([C@H]2C[C@H](O)[C@@H](CO)O2)cc1/C=C/Br | - | cytopathic effect | McIntyre | EC50 | PRK | 0.017 µg/mL
CC[C@H](N)C(=O)OCCOCn1cnc2c(=O)[nH]c(N)nc21 | - | - | SC16 | EC50 | VERO | <10 µM
Cc1cn(C[C@H]2C[C@H]2CO)c(=O)[nH]c1=O | - | cytopathic effect | - | EC50 | - | >100 µg/mL
O=c1[nH]c(=O)n([C@H]2C[C@H](O)[C@@H](CO)O2)cc1I | - | cytopathic effect | VDX500 | EC50 | PRK | 0.1 µg/mL
Nc1ccn([C@H]2C[C@@H](O)[C@H](CO)O2)c(=O)n1 | - | cytopathic effect | F | EC50 | VERO B | >10 µM
Nc1nc2c(ncn2COC2COP(=O)(O)OC2)c(=O)[nH]1 | - | plaque count | NDG-R | EC50 | MRC-5 | 37 µM
Nc1ncnc2c1ncn2[C@@H]1C[C@H](CO)[C@@H](O)[C@@H]1O | - | - | WT-20 | MIC | - | 10 µg/mL
Cc1nc(Cc2ccccc2)c2[nH]c(=S)[nH]c(=O)n12 | - | cytopathic effect | KOS | EC50 | PRK | 150 µg/mL
Nc1nc2c(ncn2C[C@H]2C[C@@H]2CO)c(=O)[nH]1 | - | cytopathic effect | - | EC50 | - | >100 µg/mL
[N-]=[N+]=NC(CBr)c1cn(CCC(CO)CO)c(=O)[nH]c1=O | - | plaque count | KOS (TK+) | EC50 | VERO | >67 µM
Cc1cn([C@@H]2C[C@H](OC(C(=O)O)P(=O)(O)O)[C@@H](O)[C@H]2O)c(=O)[nH]c1=O | - | cytopathic effect | KOS | EC50 | HEL | >250 µM
Nc1nc2c(ncn2COCCO)c(=O)[nH]1 | - | cytopathic effect | S6434 (acyclovir-susceptible) | EC50 | HFF | 0.5 µg/mL
Cc1cn([C@H]2C[C@H](O)[C@@H](CO)S2)c(=O)[nH]c1=O | - | cytopathic effect | E-377 | EC50 | VERO | 0.8 µg/mL
COCc1cn([C@@H]2C[C@H](CO)[C@@H](O)C2)c(=O)nc1N | - | plaque count | KOS 76 | EC50 | VERO | 26 µM
Cc1nc(CC(O)CO)c2nc[nH]c(=O)n12 | - | cytopathic effect | KOS | EC50 | PRK | >400 µg/mL
Cc1cn([C@@H]2O[C@@H](CO)[C@H](O)[C@H]2O)c(=O)[nH]c1=O | - | cytopathic effect | F | EC50 | VERO B | >1000 µM
C=C[C@H](O)C1=C[C@@H](n2cnc3c(N)ncnc32)[C@H](O)[C@@H]1O | - | cytopathic effect | KOS | EC50 | E6SM | >100 µg/mL
O=c1[nH]c(=O)n([C@H]2C[C@H](O)[C@@H](CO)O2)cc1I | - | plaque count | HF | EC50 | HeLa | 3.66 µg/mL